Kdimer by position in the HIV-1 leader RNA

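Mutant RNA libraries with 1G, 2G or 3G starts, with or without cap, were folded at 37 °C for 30 min. High salt was 300 mM KCl and 5 mM MgCl2, low salt 40 mM KCl and 0.1 mM MgCl2; monomer and dimer were parted on a native gel. Mutation frequencies in the two bands give Kdimer.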

RNA: 5' end of the HIV-1 NL4-3 genome, made in vitro. Positions 1-437 read:
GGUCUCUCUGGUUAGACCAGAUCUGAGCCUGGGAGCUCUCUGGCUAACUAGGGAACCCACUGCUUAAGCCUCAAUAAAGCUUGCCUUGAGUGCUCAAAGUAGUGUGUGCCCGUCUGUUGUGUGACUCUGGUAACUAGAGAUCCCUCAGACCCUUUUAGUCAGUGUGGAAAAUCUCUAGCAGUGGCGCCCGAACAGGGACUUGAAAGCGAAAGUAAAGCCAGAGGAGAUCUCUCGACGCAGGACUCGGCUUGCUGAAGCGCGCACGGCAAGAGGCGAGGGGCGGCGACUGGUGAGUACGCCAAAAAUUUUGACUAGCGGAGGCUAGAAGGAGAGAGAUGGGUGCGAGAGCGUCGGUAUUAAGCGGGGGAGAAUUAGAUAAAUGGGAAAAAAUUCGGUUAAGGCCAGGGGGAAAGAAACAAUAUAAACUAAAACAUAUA

Values are log2 Kdimer, the median over the changes at each position: higher means that changes there hinder dimer formation, below 0 that they favour it. One numbering serves 1G, 2G and 3G. A position is written with its base.

G366: 3G capped low-salt 0.23; 3G uncapped low-salt 0.21.
G367: 3G capped low-salt -0.07; 3G uncapped low-salt 0.25.
A368: 3G capped low-salt 0.15; 3G uncapped low-salt 0.01.
G369: 3G capped low-salt 0.08; 3G uncapped low-salt 0.16.
A370: 3G capped low-salt 0.05; 3G uncapped low-salt 0.06.
A371: 3G capped low-salt -0.20; 3G uncapped low-salt -0.53.
U372: 3G capped low-salt -0.08; 3G uncapped low-salt -0.13.
U373: 3G capped low-salt -0.02; 3G uncapped low-salt 0.03.
A374: 3G capped low-salt 0.10; 3G uncapped low-salt 0.11.
G375: 3G capped low-salt 0.01; 3G uncapped low-salt -0.17.
A376: 3G capped low-salt -0.14; 3G uncapped low-salt -0.17.
U377: 3G capped low-salt 0.11; 3G uncapped low-salt 0.00.
A378: 3G capped low-salt 0.09; 3G uncapped low-salt 0.08.
A379: 3G capped low-salt 0.02; 3G uncapped low-salt -0.02.
A380: 3G capped low-salt 0.06; 3G uncapped low-salt 0.02.
U381: 3G capped low-salt 0.02; 3G uncapped low-salt 0.01.
G382: 3G capped low-salt 0.17; 3G uncapped low-salt 0.15.
G383: 3G capped low-salt 0.22; 3G uncapped low-salt 0.15.
G384: 3G capped low-salt -0.06; 3G uncapped low-salt 0.06.
A385: 3G capped low-salt -0.06; 3G uncapped low-salt -0.06.
A386: 3G capped low-salt -0.03; 3G uncapped low-salt -0.05.
A387: 3G capped low-salt 0.06; 3G uncapped low-salt -0.02.
A388: 3G capped low-salt 0.08; 3G uncapped low-salt 0.02.
A389: 3G capped low-salt 0.01; 3G uncapped low-salt -0.03.
A390: 3G capped low-salt 0.09; 3G uncapped low-salt -0.16.
U391: 3G capped low-salt 0.23; 3G uncapped low-salt 0.07.
U392: 3G capped low-salt 0.20; 3G uncapped low-salt 0.01.

The first 2 entries again:

| position | domain | 3G capped low-salt | 3G uncapped low-salt |
|---|---|---|---|
| G366 | none | 0.23 | 0.21 |
| G367 | none | -0.07 | 0.25 |

Data from the supplement of Ye et al. 2022, doi:10.1038/s41594-022-00746-2.